Columns and labels:
[1] = target: S1-C9 (SARS-CoV (Tor2 isolate)) (UniProt P59594); experiment: phage ELISA, S1-C9 coated 0.2 µg per well
[2] = target: S1(327-510)-Ig (SARS-CoV (Tor2 isolate); human) (UniProt P59594); experiment: radioimmunoprecipitation with 80R scFv beads, normalized to Protein A
[3] = target: S1-Ig (SARS-CoV (Tor2 isolate); human) (UniProt P59594); experiment: SPR (BIAcore 3000), S1-Ig amine-coupled to CM5 chip

80R scFv
A450 [1]: > 1 A450 | percent of the amount that Protein A precipitated [2]: 5% | Ka [3]: 3.1e+07 M⁻¹ | Kd [3]: 0.0323 µM | koff [3]: 0.00836 s⁻¹ | kon [3]: 229000 M⁻¹ s⁻¹

From patent publication US7750123B2
